How the values were obtained:
[1] = biological target: T1, SARS-CoV-2 papain-like protease (PL^pro) (Severe acute respiratory syndrome coronavirus 2, UniProt P0DTD1); assay type: biochemical; conditions: Table 2; three independent experiments
T1 construct: papain-like protease (PL^pro); purchased Elabscience

[2] = biological target: SARS-CoV-2 3-chymotrypsin-like protease (3CL^pro) (Severe acute respiratory syndrome coronavirus 2, UniProt P0DTD1); assay type: biochemical; conditions: Table 2; three independent experiments

Question: With “ReO(2,2′-thiodiethanethiol)(water) Trifluoromethanesulfonate [Compound 3]” as the substance, how does the IC50 [1] read?
Answer: The IC50 was 7.6 ± 2.8 µM.

Question: What about the IC50 [2] of the same substance?
Answer: Its IC50 is 0.018 ± 0.006 µM.

— paper PMC9969397, “Rhenium(V) Complexes as Cysteine-Targeting Coordinate Covalent Warheads” (Journal of Medicinal Chemistry, 2023)
